Assay results: US8080659B2, “CXCR4 antagonists including diazine and triazine structures for the treatment of medical disorders” (Emory University, priority 2006, dated 2011)

System: SHIV
Experiment: p27 antigen capture in SHIV infected cells
Conditions: 0.1, 1, 10 or 100 nM drug prior to infection

c1ccc(NCc2ccc(CNc3ccccn3)cc2)nc1
SHIV infection (p27 antigen levels): inhibited SHIV infection at all concentrations tested
